# Target: TJ7.15 phage-fragment clone (WNWFDIT) (HIV-1 (HXB2 or SF162 isolate library))
# Assay: flow cytometry, yeast-displayed scFv with different TJ7.15 phage preparations
substance,measurement,value
yeast-displayed Z13e1 scFv,% double positive cells,40%

# From patent publication US20100216659A1
